Measured values reported in US20230167479A1, “RESEARCH INTO ANTIMICROBIAL RESISTANCE BY THE FIELD FLOW FRACTIONATION TECHNIQUE” (UNIVERSITÉ DE LIMOGES, priority 2020, published 2023).

How the values were obtained:
[1] = system: E. coli strain ATCC 25922; test: SdFFF elution-profile sensitivity test, protocol of Example 2 / FIG. 4; assay type: cell-based
Protocol: (§1) The results of the antimicrobial resistance analysis are expected starting 18-26 hours after the sample was cultured on agar.
(§2) The field-flow fractionation device is set according to patent EP1679124. The device comprises an injection system where the sample is taken, the tubing bringing the sample from the injector to the separation channel via a first rotary joint, the separation channel contained in a centrifugation bowl, the rotation of which is ensured by an electric motor itself controlled manually or via a suitable computer device, thus allowing control of the intensity of the multigravitational field, the tubing bringing the separated species from the channel to the detector via the second rotary joint, and finally the detector.
(§3) Bacterial colonies were incubated in a Mueller-Hinton (MH) culture medium with an inoculum of 0.5 McFarland in the absence or in the presence of antibiotic, for 2 hours at 37° C. and under stirring. The liquid medium MH is the reference medium used for the reference method for determining MIC values, called the dilution method in a liquid medium.
(§4) After incubation for 2 h, the culture medium was centrifuged and then taken up in a volume of 0.5 ml of PBS.
(§5) According to the handlings shown in FIG. 5, the calculation of the percentage of variation in the retention factor or PΔR is carried out as follows: ?
(§6) Example 2: A new analysis protocol was established according to FIG. 4, consistent with the clinical implementation of conventional antibiograms, making it possible to reduce to 26 hours post-sampling/isolating the time for obtaining the test results.
(§7) Thus, such assays were carried out directly on bacterial suspensions, obtained from colonies of the E. coli strain ATCC 25922 and ATCC 35218 cultured for 16-24 hours on agar medium, and incubated for 2 hours in the presence or in the absence of antibiotic (Ampicillin, FIGS. 5A/B).

[2] = system: E. coli strain ATCC 35218; test: as above; assay type: cell-based
Protocol: as §1, §2, §3, §4, §5, §6, §7

[3] = treated with 4 mg/ml ampicillin

In the case of `CC1(C)S[C@@H]2[C@H](NC(=O)[C@H](N)c3ccccc3)C(=O)N2[C@H]1C(=O)O` [ampicillin, Ampicillin], the “Robs (retention factor)” value [1, 3] is reported as 0.408, the “retention time (tr)” value ([1]; treated with 4 mg/ml of ampicillin, average) is reported as 2.36 min and the “Robs (retention factor)” value [2, 3] is reported as 0.269. For the same compound, the “retention time (tr)” value ([2]; treated with 4 mg/ml of ampicillin, average, t0 0.96 minute) was 3.58 min.
